These results are taken from patent US20040126810A1, “Peptide substrate identified by type bont/b botulinus toxin and use thereof for assaying and/or detecting said toxin or corresponding inhibitors” (published 2004).

For the experiment, the target named is peptide substrate 2s (fragment 60-94 of synaptobrevin with PyA-Ser-Gln-pNF at the cleavage site) (…).

On to “light chain of botulinum toxin type B (BoNT/B) (from UniProt P10844) (enzyme)”, for which the kinetic constants of cleavage of the substrate (fluorimetric assay) stood at 47 µM.
